Assay results taken from paper PMC12017303 (Science Advances, 2025).

Test system: SARS-CoV-2 Beta variant
Experiment: Mouse infection model, lung virus titers by plaque assay
Format: in vivo
Conditions: H-E staining

CC(C)(C)[C@H](NC(=O)C(F)(F)F)C(=O)N1C[C@H]2[C@@H]([C@H]1C(=O)N[C@H](C#N)C[C@@H]1CCNC1=O)C2(C)C [nirmatrelvir, reference compound]
mononuclear cell infiltration and respiratory epithelial cell injury in lung: to a minimal extent
